Pooled drug test results. Numbers come from NIAID ChemDB, via PubChem.

Shared fields: target-level tests; organism: HIV-1; target: Integrase; read-out: IC50

Rows are shuffled and stem from different studies.

structure,read by,value
O=c1ccn2ncn(Cc3cccc(Cl)c3)c(=O)c2c1O,ELISA,0.1–1 µM
CN1CCn2c(nc(C(=O)NCc3ccc(F)cc3)c(O)c2=O)C(N(C)C(=O)C(=O)N2CCCC2)C1,ELISA,<10 µM
O=C(/C=C(\O)C(=O)O)NCc1ccc(F)cc1,strand transfer,<70 µM
O=C(NCc1ccncc1)c1cn2ccn(Cc3cccc(Cl)c3)c(=O)c2c(O)c1=O,ELISA,0.01–0.1 µM
CN1CCn2c(nc(C(=O)NCc3ccc(F)cc3)c(O)c2=O)C1,ELISA,<10 µM
Cc1cc(=O)n(-c2cccc(Cl)c2)n1C(=O)c1ccco1,strand transfer,>1000 µM
CC(=O)Nc1cn2c(c(O)c1=O)C(=O)N(Cc1cccc(Cl)c1F)CC2,ELISA,0.01–0.1 µM
CN1CCn2c(nc(C(=O)NCc3cccc(Cl)c3)c(O)c2=O)C(N(C)C(=O)C(=O)N(C)C)C1,ELISA,<10 µM
CC(=O)OCC(C)(C)C(=O)c1cn2ccn(Cc3cccc(Cl)c3)c(=O)c2c(O)c1=O,ELISA,<0.01 µM
O=S(=O)(Cc1ccc(Br)cc1)c1nc2ccccc2s1,strand transfer,>1000 µM
Cn1ncnc1-c1cn2ccn(Cc3ccc(F)cc3)c(=O)c2c(O)c1=O,ELISA,<0.01 µM
O=C(/C=C(\O)C(=O)O)NCc1ccc(Cl)cc1,strand transfer,<70 µM
CNC(=O)CN1CCn2c(nc(C(=O)NCc3ccc(F)cc3)c(O)c2=O)C1(C)C,ELISA,<10 µM
CN(Cc1ccccc1Cl)C(=O)/C=C(\O)C(=O)O,strand transfer,<70 µM
Cc1cc(=O)n(-c2ccc(Br)cc2F)n1C(=O)c1ccco1,strand transfer,>1000 µM
CC(NC(=O)/C=C(\O)C(=O)O)c1ccc(F)cc1,strand transfer,>70 µM
N#Cc1ccccc1-c1ccc(CN2C(=O)C(=O)c3ccccc32)cc1,3′ processing,>1000 µM
O=C1c2c(O)c(=O)c(-c3cccnc3)cn2CCN1Cc1cccc(Cl)c1F,ELISA,0.01–0.1 µM
O=C(O)/C(O)=C/C(=O)N(Cc1ccc(F)cc1)CC1CC1c1ccccc1,strand transfer,<70 µM
COc1cc(Cl)ccc1CN1CCn2cc(-c3nccs3)c(=O)c(O)c2C1=O,ELISA,0.01–0.1 µM
O=C(O)/C(O)=C/C(=O)N(Cc1ccc(F)cc1)c1ccc(F)cc1OCc1ccc(F)cc1,strand transfer,<70 µM

The last 2 rows once more:

structure	read by	value
COc1cc(Cl)ccc1CN1CCn2cc(-c3nccs3)c(=O)c(O)c2C1=O	ELISA	0.01–0.1 µM
O=C(O)/C(O)=C/C(=O)N(Cc1ccc(F)cc1)c1ccc(F)cc1OCc1ccc(F)cc1	strand transfer	<70 µM

ICn: concentration for n% inhibition. a–b is a range or a potency band.